Results deposited as PubChem BioAssay AID624099 (ICCB-Longwood, 2012)

Assay: 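Human genes that papillomavirus E2 requires to repress the HPV18 LCR promoter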 (primary screen)
System: human C33A cervical carcinoma cells (HPV-negative) stably expressing BPV1 E2 and an HPV18 LCR luciferase reporter
Knock-down reagent: siRNA pool against human genes, 40 nM
Timing: 72 h
Measured: 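HPV18 LCR reporter light per well, converted to plate-wise z-scores that exclude control wells, and averaged over triplicate plates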
Direction: mean z-score and z-score: higher = stronger reporter signal, weaker E2 silencing
Call rule: 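Hit if mean z-score reaches 2 and two or more of three replicate z-scores also reach 2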
This is a random part of about 21,000 reagents tested. Over the whole deposit, 497 (2.4%) were called active. 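Higher z means weaker E2 silencing; only reporter increases were scored, and knock-downs that hurt cell survival may mask genuine repressor factors.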 A number with no mark means an inactive call.

The opening 5 entries, ahead of the listing:
| target | mean z-score | z-score, replicate A | z-score, replicate B | z-score, replicate C |
| --- | --- | --- | --- | --- |
| LIMK2 (GeneID 3985) | 2.88 (active) | 2.12 | 3.05 | 3.45 |
| PROS1 (GeneID 5627) | -0.58 | -0.66 | -0.38 | -0.7 |
| CSDC2 (GeneID 27254) | -0.65 | -0.39 | -0.59 | -0.95 |
| GMPPB (GeneID 29925) | -0.86 | -1.01 | -0.91 | -0.65 |
| PPP2R2C (GeneID 5522) | -1.83 | -1.8 | -1.87 | -1.81 |

Main list, from the start:
| target | mean z-score | z-score, replicate A | z-score, replicate B | z-score, replicate C |
| --- | --- | --- | --- | --- |
| LIMK2 (GeneID 3985) | 2.88 (active) | 2.12 | 3.05 | 3.45 |
| PROS1 (GeneID 5627) | -0.58 | -0.66 | -0.38 | -0.7 |
| CSDC2 (GeneID 27254) | -0.65 | -0.39 | -0.59 | -0.95 |
| GMPPB (GeneID 29925) | -0.86 | -1.01 | -0.91 | -0.65 |
| PPP2R2C (GeneID 5522) | -1.83 | -1.8 | -1.87 | -1.81 |
| CMTM6 (GeneID 54918) | -0.37 | -0.79 | -0.13 | -0.19 |
| LOC391555 (retired record) (GeneID 391555) | 0.11 | 0.48 | 0.11 | -0.26 |
| COG6 (GeneID 57511) | -1.33 | -1.42 | -1.2 | -1.37 |
| HCN3 (GeneID 57657) | -0.45 | -0.39 | -0.42 | -0.53 |
| SIK1 (GeneID 150094) | 1.25 | 1.17 | 0.99 | 1.6 |
| OR4C45 (GeneID 403257) | -0.83 | -1.46 | -0.72 | -0.31 |
| DDX21 (GeneID 9188) | 0.2 | -0.32 | 0.66 | 0.26 |
| LINC01749 (GeneID 63930) | -0.66 | -0.63 | -0.6 | -0.73 |
| LOC284527 (retired record) (GeneID 284527) | -0.01 | 0.53 | -0.25 | -0.31 |
| CYFIP2 (GeneID 26999) | -1.04 | -1.03 | -1.05 | -1.05 |
| FSTL5 (GeneID 56884) | 0.88 | 0.85 | 0.75 | 1.05 |
| FAM161B (GeneID 145483) | -0.43 | -0.4 | -0.84 | -0.06 |
| C5AR2 (GeneID 27202) | 0.6 | 0.49 | 0.41 | 0.91 |
| CENPK (GeneID 64105) | -0.44 | -0.75 | -0.87 | 0.31 |
| ARIH1 (GeneID 25820) | -0.86 | -0.82 | -1.02 | -0.74 |
| NAGS (GeneID 162417) | 0.03 | -0.16 | 0.13 | 0.12 |
| DIPK1C (GeneID 125704) | 0.08 | -0.1 | 0.16 | 0.19 |
| COL6A6 (GeneID 131873) | -0.04 | -0.04 | -0.04 | -0.04 |
| VWC2 (GeneID 375567) | -0.1 | 0.06 | 0.03 | -0.39 |
| KATNAL2 (GeneID 83473) | 0.4 | 0.15 | 0.56 | 0.49 |
| OR52L1 (GeneID 338751) | 0.89 | 1.06 | 0.71 | 0.91 |
| WDFY3-AS2 (GeneID 404201) | 0.14 | 0.38 | 0.27 | -0.23 |
| ST3GAL4 (GeneID 6484) | 0.69 | 0.47 | 0.69 | 0.92 |
| LOC387826 (retired record) (GeneID 387826) | -0.36 | -0.1 | -0.45 | -0.53 |
| IFT57 (GeneID 55081) | -0.06 | -0.38 | -0.25 | 0.45 |
| ATP10D (GeneID 57205) | -0.9 | -1.04 | -0.81 | -0.86 |
| FOXO1 (GeneID 2308) | 0.77 | 1.08 | 0.19 | 1.03 |
| NEUROD6 (GeneID 63974) | -0.8 | -1.3 | -1.08 | -0.01 |
| PTPN18 (GeneID 26469) | 1.56 | 1.75 | 1.73 | 1.19 |
| LOC151760 (GeneID 151760) | 0.3 | 0.04 | 0.33 | 0.52 |
| PHF8 (GeneID 23133) | -0.58 | 0.01 | -0.8 | -0.96 |
| CD2 (GeneID 914) | -0.53 | -0.47 | -0.49 | -0.64 |
| LINC00710 (GeneID 254312) | 2.01 | 1.6 | 2.53 | 1.9 |
| NOSTRIN (GeneID 115677) | 0.4 | 0.19 | 0.21 | 0.79 |
| FLYWCH2 (GeneID 114984) | -1.73 | -2.14 | -1.25 | -1.79 |
| CLEC9A (GeneID 283420) | 0.53 | 0.54 | 0.67 | 0.37 |
| RACGAP1 (GeneID 29127) | 0.88 | 0.96 | 1.11 | 0.56 |
| CSTF1 (GeneID 1477) | 1.14 | 1.03 | 1.22 | 1.18 |
| FOXJ2 (GeneID 55810) | 1.15 | 1.01 | 1.3 | 1.15 |
| TNFRSF11A (GeneID 8792) | 0 | 0.13 | -0.05 | -0.09 |
| ARL6 (GeneID 84100) | -0.57 | -0.85 | -0.26 | -0.6 |
| CLCA1 (GeneID 1179) | 0.37 | 0.85 | 0.15 | 0.1 |
| DHX34 (GeneID 9704) | 1.68 | 1.45 | 1.81 | 1.79 |
| SERPINB11 (GeneID 89778) | 0.48 | 0 | 0.48 | 0.98 |
| CYFIP1 (GeneID 23191) | 0.47 | 0.8 | 0.77 | -0.18 |
| BTF3L4P3 (GeneID 391040) | 1.41 | 1.59 | 1.15 | 1.5 |
| CNPY4 (GeneID 245812) | 1.88 | 2.08 | 1.87 | 1.67 |
| ZNF142 (GeneID 7701) | -0.57 | -0.67 | -0.36 | -0.68 |
| HHLA2 (GeneID 11148) | -0.12 | -0.37 | -0.2 | 0.2 |
| MAMDC4 (GeneID 158056) | -0.69 | -1.03 | -0.63 | -0.4 |
| WDR82 (GeneID 80335) | -1.94 | -2.14 | -1.61 | -2.07 |
| OR4N2 (GeneID 390429) | -0.27 | -0.56 | 0.06 | -0.29 |
